A mixed list of measured activities; the numbers were collected in NIAID ChemDB.

Shared fields: whole-cell or culture tests; species: Cytomegalovirus; method: cytopathic effect; measure: EC50

ECn: concentration that inhibits the pathogen or its effect by n%. Blank or dashed fields: not listed here. Rows are shuffled and stem from different studies.

| SMILES | cell line | strain or isolate | result |
|---|---|---|---|
| CC(C)CS[C@@H]1C[C@H](n2cnc3c(N)ncnc32)[C@@H](O)[C@H]1O | HEL | AD169 | >200 µg/mL |
| Nc1nc(N)c2ncn(C[C@@H](CF)OCP(=O)(O)O)c2n1 | HEL | AD169 | >300 µM |
| CCCCCCc1cc2cn(CCCC)c(=O)nc2o1 | HEL | DAVIS | 20 µM |
| CCCCCCCCCCCC(c1cc(C)ccc1C)S(=O)(=O)c1cccc[n+]1[O-] | HEL |  | 0.56 µg/mL |
| OC[C@H]1O[C@@H](n2c(SCc3ccccn3)nc3ccccc32)[C@H](O)[C@@H]1O | HEL |  | >100 µg/mL |
| COc1cccnc1SCc1ccccc1 | HEL |  | >50 µg/mL |
| C[C@H](Cn1cnc2c(N)nc(N)nc21)OCP(=O)(O)O | HEL | AD169 | >30 µM |
| CCCCCCCCCCc1nccn(CCCCO)c1=O | MRC-5 |  | >10 µM |
| OCCOCn1c(SCc2ccccn2)nc2ccccc21 | HEL |  | >100 µg/mL |
| Nc1ncc2ncn(C[C@H](CF)OCP(=O)(O)O)c2n1 | HEL | AD169 | >300 µM |
| CC1(C)[C@@H](CO)CC[C@@]1(C)Cn1cnc2c(=O)[nH]cnc21 | HEL | AD169 | >50 µg/mL |
| Nc1ncnc2c1ncn2C[C@H](O)CO | HEL | DAVIS | 70 µg/mL |
| CCCCCCCCCCc1nccnc1OCCCCO | MRC-5 |  | >10 µM |
| Cc1cn(C(CCN=[N+]=[N-])OCCO)c(=O)[nH]c1=O | HFF |  | >200 µM |
| Cc1ccc([N+](=O)[O-])cc1CS(=O)(=O)c1cccc[n+]1[O-] | HEL |  | >50 µg/mL |
| OC[C@H]1O[C@@H](n2c(CCc3ccccn3)nc3cc(Cl)c(Cl)cc32)[C@H](O)[C@@H]1O | HEL |  | >100 µg/mL |
| OC[C@H]1O[C@@H](c2cc(C(O)C(Br)Br)c(F)cc2F)C[C@@H]1O | HEL | DAVIS | >200 µg/mL |
| Clc1ccc(CSc2ccccn2)cc1 | HEL |  | 0.31 µg/mL |
| Nc1nc2c(ncn2C[C@@H](CF)OCP(=O)(O)O)c(=O)[nH]1 | HEL | AD169 | >300 µM |
| O=c1[nH]c(=O)n([C@H]2C[C@H](O)[C@@H](CO)O2)cc1/C=C/Br | HEL | DAVIS | 300 µg/mL |
| CC(Cl)(c1ccccc1)S(=O)(=O)c1cccc[n+]1[O-] | HEL |  | 50 µg/mL |
| Nc1nc2c(ncn2CC(CO)OCP(=O)(O)O)c(=O)[nH]1 | HEL | AD169 | 0.7 µg/mL |
| OC[C@H]1O[C@@H](n2c(SCc3ccccn3)nc3cc(Cl)c(Cl)cc32)[C@H](O)[C@@H]1O | HEL |  | >50 µg/mL |
| Nc1ncnc2c1ncn2C[C@@H](CO)OCP(=O)(O)O | HEL | DAVIS | 1 µg/mL |
| CC1(C)[C@@H](CO)CC[C@@]1(C)Cn1nnc2c(N)ncnc21 | HEL | DAVIS | >50 µg/mL |
| Cc1ccc(C)c(C(CO)S(=O)(=O)c2ccccn2)c1 | HEL |  | >50 µg/mL |
| Nc1ccn(C[C@@H](CO)OCP(=O)(O)O)c(=O)n1 | HEL | DAVIS | 0.4 µg/mL |
| Nc1ncnc2c1ncn2[C@@H]1C=C(CO)[C@@H](O)[C@H]1O | HEL | AD169 | 0.3 µg/mL |
| CC[C@@H](O)C1=C[C@@H](n2cnc3c(N)ncnc32)[C@H](O)[C@@H]1O | HEL | AD169 | >50 µg/mL |
| c1ccc(COc2cccnc2SCc2ccccc2)cc1 | HEL |  | >2 µg/mL |
| O=c1ccn([C@@H]2O[C@H](CO)[C@](O)(C(F)(F)F)[C@H]2O)c(=O)[nH]1 | VERO | DAVIS | >50 µg/mL |
| Cc1ccc(C)c(C(Br)S(=O)(=O)c2cccc[n+]2[O-])c1 | HEL |  | >50 µg/mL |
| Nc1nc(Cl)c2ncn([C@@H](CCO)OCCO)c2n1 | HFF |  | 88 µM |
| CCc1nc([N+](=O)[O-])c(Sc2ccccc2)n1Cc1ccccc1 | HEL | DAVIS | 1.3 µg/mL |
| Cc1ccccc1CS(=O)(=O)c1c(C)ccc[n+]1[O-] | HEL |  | >5 µg/mL |
| Nc1nc(Cl)c2ccn([C@H]3CO[C@@H](CO)C3)c2n1 | HEL | DAVIS | >10 µg/mL |
| Nc1nc(=O)n([C@@H]2O[C@H](CO)[C@@H](O)[C@@H]2F)cc1I | HEL | DAVIS | 7 µg/mL |
| Nc1nc2c(ncn2[C@@H](CCO)SCCO)c(=O)[nH]1 | HFF |  | >200 µM |
| Nc1ncnc2c1ncn2C[C@H]1COP(=O)(O)CO1 | HEL | DAVIS | 1 µg/mL |
| Cc1ccc(C)c(C(c2ccccc2)S(=O)(=O)c2cccc[n+]2[O-])c1 | HEL |  | 20 µg/mL |
| C#C[C@@H](O)C1=C[C@@H](n2cnc3c(N)ncnc32)[C@H](O)[C@@H]1O | HEL | AD169 | >50 µg/mL |
| CC1(C)[C@@H](CO)CC[C@@]1(C)Cn1nnc2c(Cl)ncnc21 | HEL | AD169 | >50 µg/mL |
| CCOc1ccccc1CS(=O)c1cccc[n+]1[O-] | HEL |  | >50 µg/mL |
| Cc1cn([C@H]2C/C(=N\O)[C@@H](CO)O2)c(=O)[nH]c1=O | HEL | AD169 | >200 µg/mL |
| Nc1nc2c(ccn2[C@H]2CO[C@@H](CO)C2)c(=O)[nH]1 | HEL | DAVIS | >40 µg/mL |
| OC[C@H]1O[C@@H](c2cc(C(O)CI)c(F)cc2F)C[C@@H]1O | HEL | AD169 | >200 µg/mL |
| Cc1cn([C@@H]2O[C@H](CO)[C@](O)(C(F)(F)F)[C@H]2O)c(=O)[nH]c1=O | VERO | DAVIS | >50 µg/mL |
| CCCCCCc1cc2cnc(OC)nc2o1 | HEL | AD169 | >8 µM |
| Nc1nc2c(ncn2COC(CO)CO)c(=O)[nH]1 | HEL | DAVIS | 1 µg/mL |
| CCCCCCCn1cc2cc(CCCCCC)oc2nc1=O | HEL | DAVIS | 20 µM |
| O=S(Cc1ccc(F)cc1)c1cccc[n+]1[O-] | HEL |  | >50 µg/mL |

Repeating the final 6 entries:

SMILES	cell line	strain or isolate	result
OC[C@H]1O[C@@H](c2cc(C(O)CI)c(F)cc2F)C[C@@H]1O	HEL	AD169	>200 µg/mL
Cc1cn([C@@H]2O[C@H](CO)[C@](O)(C(F)(F)F)[C@H]2O)c(=O)[nH]c1=O	VERO	DAVIS	>50 µg/mL
CCCCCCc1cc2cnc(OC)nc2o1	HEL	AD169	>8 µM
Nc1nc2c(ncn2COC(CO)CO)c(=O)[nH]1	HEL	DAVIS	1 µg/mL
CCCCCCCn1cc2cc(CCCCCC)oc2nc1=O	HEL	DAVIS	20 µM
O=S(Cc1ccc(F)cc1)c1cccc[n+]1[O-]	HEL		>50 µg/mL